This is an account of results in ChEMBL document CHEMBL3098072 (Bioorg Med Chem, 2014).

Values after ≈ are worked out from the molar mass of the structure shown.

The subject of this assay is Bacillus anthracis. The assay can be described thus: microbe, parasite or virus in culture. The settings on record: Sterne 34F2, 20 h.
`Nc1cccc(-c2cnnc(N3CCC(c4cccc(Cl)c4)C3)n2)c1` (stereo unspecified) came in with an MBC of 128 µM (≈ 45 µg/mL) and an MIC of 32 µM (≈ 11.3 µg/mL).
Consider `Clc1cccc(C2CCN(c3nncc(-c4ccccc4)n3)C2)c1` (stereo unspecified), for which the MBC came out at 128 µM (≈ 43.1 µg/mL) and the MIC came to 16 µM (≈ 5.39 µg/mL).
The matching figures for `COc1ccc(-c2cnnc(N3CCC(c4cccc(Cl)c4)C3)n2)cc1OC` (stereo unspecified): above 128 µM and 16 µM (≈ 6.35 µg/mL).
